Test results as given in patent US8425945B2, “Methods and compositions for regulating biofilm development” (NewSouth Innovations Pty Limited, priority 2005, dated 2013).

What was measured:
[1] = test system: Staphylococcus epidermidis; assay: Inhibition of biofilm formation on glass slides, SNP added continuously; settings: concentration-dependent
V. cholerae biofilms = assay: SNP in combination with tetracycline on biofilms; settings: SNP with tetracycline 6 μg/mL (below the MIC), 24 hours
P. aeruginosa PAO1-GFP = assay: Biofilm formation (crystal violet) and planktonic growth in 96-well plates; settings: for planktonic growth (fluorescence) / biofilm formation (crystal violet, OD490 nm): 24 hours
[2] = SNP in the micromolar and nanomolar ranges

Substance: sodium nitroprusside
- biofilm formation [1]: can prevent the formation of a biofilm
- antimicrobial activity of tetracycline on biofilms (V. cholerae biofilms): enhances the antimicrobial activity of tetracycline
- planktonic growth (fluorescence) (P. aeruginosa PAO1-GFP; 25 mM-100 mM SNP, in comparison to untreated): decrease in planktonic growth
- biofilm formation (crystal violet, OD490 nm) (P. aeruginosa PAO1-GFP; 25 mM-100 mM SNP, in comparison to untreated biofilm): increase in biofilm formation
- biofilm formation (crystal violet, OD490 nm) (P. aeruginosa PAO1-GFP; [2]): decrease in biofilm formation
- planktonic growth (fluorescence) (P. aeruginosa PAO1-GFP; [2]): increase in planktonic growth
- SNP concentration giving the highest effect (P. aeruginosa PAO1-GFP; tested 25 nM to 100 mM): 500 nM

Only a part of the results on these compounds is given; other tests are left out.
